Anti-infective test results gathered from many reports (values: NIAID ChemDB through PubChem).

Common to all: tests in culture; agent: Hepatitis C virus

Blank or dashed fields: not listed here.

smiles,dose,measure,read by,changes,strain,cells,value
O=c1cc(-c2ccc(O)cc2)oc2cc(O)cc(O)c12,0.1 µM,inhibition,PCR,-,G1,Huh7,40%
Fc1ccccc1-c1nc2ccn(Cc3ccc(-c4ccc(C(F)(F)F)cc4C(F)(F)F)nn3)cc-2n1,-,EC50,luciferase,-,6a,Huh7,0.0855 µM
CC(C)OC(=O)[C@H](C)N[P@](=O)(OC[C@H]1O[C@@](C#N)(c2ccc3c(N)ncnn23)[C@](C)(O)[C@@H]1OC(=O)C(C)C)Oc1ccccc1,-,fold resistance,luciferase,Y448H Y452H,1b Con1,1C,0.8
COc1ccc2c(O[C@@H]3C[C@H]4C(=O)N[C@]5(C(=O)NS(=O)(=O)C6CC6)C[C@H]5/C=C\CCCCN(C)C(=O)[C@@H]4C3)cc(-c3nc(C(C)C)cs3)nc2c1C,-,EC50,antigen,-,K3a/650,Huh7.5,2.553 µM
C[C@@]1(O)[C@H](O)[C@@H](CO)O[C@H]1n1cnc2c(N)ncnc21,-,EC50,luciferase,-,-,H77,0.3717 µM
CC(C)(CO)C(=O)SCCOP(=O)(NCc1ccccc1)OC[C@H]1O[C@@H](n2cnc3c(=O)[nH]c(N)nc32)[C@](C)(O)[C@@H]1O,-,fold resistance,replicon,L31F,GT1a,Replicon cells,1.06
O=C(O)c1c(-c2ccc(F)cc2)nc(SCc2nc3ccccc3[nH]2)[nH]c1=O,-,EC90,replicon / PCR,-,-,Huh7,0.678 µM
COc1ccc2c(O[C@@H]3C[C@H]4C(=O)N[C@]5(C(=O)NS(=O)(=O)C6CC6)C[C@H]5/C=C\CCCCN(C)C(=O)[C@@H]4C3)cc(-c3nc(C(C)C)cs3)nc2c1C,0.006 µM,inhibition,luciferase / replicon,-,1b,Huh7,91.86%
CC(=O)Nc1ccc(-c2ccc(Cl)cc2)c(COc2ccc(-c3nc4cc(C(=O)O)ccc4n3C3CCCCC3)cc2)c1,-,EC50,luciferase,-,5a,Huh7,0.1081 µM
C[C@@]1(O)[C@H](O)[C@@H](CO)O[C@H]1c1coc2c(N)ncnc12,2 µg/mL,inhibition,MTT,-,-,HepG2-5B,0%
N#Cc1c(-c2ccccc2Cl)nc(SCc2nc3ccccc3[nH]2)[nH]c1=O,-,EC50,replicon / PCR,-,-,Huh7,0.245 µM
O=c1c(O)c(-c2ccc(O)c(O)c2)oc2cc(O)cc(O)c12,1 µM,inhibition,PCR,-,G1,Huh7,57%
O=C(O)c1c(-c2ccccc2)nc(SCc2nc3ccccc3[nH]2)[nH]c1=O,-,EC90,replicon / PCR,-,-,Huh7,1.12 µM
CO[C@@H]1[C@H](O)[C@@H](COP(=O)(O)OP(=O)(O)OP(=O)(O)O)O[C@H]1n1ccc(N)nc1=O,30 µg/mL,inhibition,MTT,-,-,HeLa-5B,48.52%
O=C(O)c1c(-c2ccco2)nc(SCc2nc3ccccc3[nH]2)[nH]c1=O,-,EC50,replicon / PCR,-,-,Huh7,0.181 µM
C=C[C@@H]1C[C@]1(NC(=O)[C@@H]1C[C@@H](Oc2nccc3ccc(Br)cc23)CN1C(C)=O)C(=O)NS(=O)(=O)C1CC1,-,EC50,luciferase,-,1b D168A,-,>3 µM
N#Cc1c(-c2ccc(F)cc2)nc(SCc2nc3ccccc3[nH]2)[nH]c1=O,-,EC50,replicon / PCR,-,-,Huh7,0.231 µM
CC(C)OC(=O)[C@H](C)N[P@](=O)(OC[C@H]1O[C@@H](n2ccc(=O)[nH]c2=O)[C@](C)(F)[C@@H]1O)Oc1ccccc1,0.03 µM,inhibition,luciferase / replicon,-,1b Con1,Huh7,26.8%
CCC[C@H](NC(=O)[C@@H]1[C@H]2CCC[C@H]2CN1C(=O)[C@@H](NC(=O)[C@@H](NC(=O)c1cnccn1)C1CCCCC1)C(C)(C)C)C(=O)C(=O)NC1CC1,-,EC50,antigen,-,JCH2,Huh7.5,0.635 µM
O=C(O)c1c(-c2ccccc2O)nc(SCc2nc3ccccc3[nH]2)[nH]c1=O,-,EC90,replicon / PCR,-,-,Huh7,0.987 µM

A second listing of 2 rows from above:

smiles,dose,measure,read by,changes,strain,cells,value
C=C[C@@H]1C[C@]1(NC(=O)[C@@H]1C[C@@H](Oc2nccc3ccc(Br)cc23)CN1C(C)=O)C(=O)NS(=O)(=O)C1CC1,-,EC50,luciferase,-,1b D168A,-,>3 µM
CC(C)OC(=O)[C@H](C)N[P@](=O)(OC[C@H]1O[C@@H](n2ccc(=O)[nH]c2=O)[C@](C)(F)[C@@H]1O)Oc1ccccc1,0.03 µM,inhibition,luciferase / replicon,-,1b Con1,Huh7,26.8%

Fold resistance has wild type as its base. Inhibition is in % at the dose shown (toxicity tests: loss of growth or viability). Neighbouring rows are from separate reports. ECn: concentration that inhibits the pathogen or its effect by n%.